# Library screen at single concentrations

The values are deposited in ChEMBL (CHEMBL3988442, “University of Dundee, Small-Polar-MMV Screening Library” (2021)).

Mtb glucose medium: 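Phenotypic screen: M. tuberculosis growth, glucose 7H9 medium, 3 days; the read-out is not stated. Tested at 500 µM. The record gives no direction; compounds that gave an IC50 in retests scored well above the rest, so higher reads as more growth inhibition. Size under these conditions: about 18,000 compounds, about 1,400 of them at 50% or above in at least one test.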
Mtb cholesterol medium: 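Growth of Mycobacterium tuberculosis over 4 days (cholesterol / DPPC medium with tyloxapol); the read-out is not stated. Concentration: 500 µM. The record gives no direction; compounds that gave an IC50 in retests scored well above the rest, so higher reads as more growth inhibition. Of about 18,000 compounds tested this way, about 900 (5%) reached 50% or more in at least one test.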

The filed quantity is “Percent Effect” (%). How 0% and 100% were set is not recorded. Most values in the screen are low, and negative values occur. Many other results are left out here, so strong results are more common than in the screen. A dash means the value is not listed here; it may have been measured.

compound	Mtb glucose medium	Mtb cholesterol medium
c1ccc(CN2CCC(N3CCCC3)CC2)nc1	-	11.27
CNC(=O)c1cc(OC2CCNC2)ccn1 (centres unmarked)	31.86	-
CC[C@H](C)[C@H](N)C(=O)N(C)C	4.451	-
CC(C(=O)NCc1ncccc1F)N1CCSCC1 (centres unmarked)	-	17.16
Cc1cc(NC2CCC(=O)N(C)C2)nc(C)n1 (centres unmarked)	-	-13.7
Cc1nc(C)c(C(=O)NCCN2CCCCC2)o1	-	2.17
CCOC(=O)C1=C(CN(C)CC)NC(=O)NC1	-	-24.55
COCCCNc1ccc(Br)cn1	44.47	23.52
Cc1cccc(C)c1NC(=O)CN1CCNCC1	-5.374	6.605
Cc1c(C(N)=O)nnn1-c1ccc2c(c1)OCCO2	-2.486	-
CC1=CCN(C(=O)c2ccsc2)CC1	-	56.71
O=C(Cc1ccc(O)cc1Cl)N1CCCC1CO (centres unmarked)	28.82	-
CC(N)c1coc2ccccc12 (centres unmarked)	-	13.27
CCOc1ccc(NC(=O)C(C)n2cccn2)cc1 (centres unmarked)	34.27	-
CCOc1ccc(C(=O)Nc2ccnc(C)c2)cn1	55.11	-
NC(=O)CCNC(=O)CCOc1ccccc1	-	-13.61
c1ccc2ncc(N3CCNCC3)cc2c1	35.08	-
COc1cc(OC)cc(C2(F)CCNC2)c1 (centres unmarked)	34.68	11.69
Cc1cc(C)n(CC(C)CN)n1 (centres unmarked)	-	12.64
COC[C@@H]1CCCN1C(=O)Nc1ccc(C(C)=O)cc1	31.3	-
CC(C)CC(N)C(=O)N1CCNC(=O)C1 (centres unmarked)	0.5689	-
COCC(=O)N1CCCN(Cc2cncn2C)CC1	-	-17.46
CCn1ccc(CN2CCOC(CCOC)C2)n1 (centres unmarked)	11.5	-
CN(Cc1cccc(C#N)c1)C(=O)C1CC1	50.2	69.74
CNC(=O)C(C)(C)Oc1cccc(Cl)c1	68.29	-
CSc1nc(C(=O)N2CCSCC2)c2ccccn12	-	5.485
CNC1CCN(C(C)c2ccccn2)CC1 (centres unmarked)	-0.6144	-
CN1CCN(c2cnn(CCC(N)=O)c(=O)c2)CC1	3.103	-
c1cc(C2CCCN2)n[nH]1 (centres unmarked)	-	-9.707
Cc1ccc2c(c1)C(N)CO2 (centres unmarked)	-	-1.281
O=C1NCC(C(=O)N2CCCCCC2)N1 (centres unmarked)	7.85	-
CCOc1cc(Cl)c(CNCCO)cc1OC	13.59	-
CCn1cc(N)cn1	22.46	19.66
CC(=O)c1c(F)cccc1N(C)CCC(C)O (centres unmarked)	44.82	-
COCCSc1ccc(C(C)NS(=O)(=O)N(C)C)cc1 (centres unmarked)	26.13	-
COc1cccc(OCCN2CCNCC2)c1	44.9	-
Cc1ccc2nc(CN3CCC[C@H]3CO)cc(O)c2c1	-	-20.06
NC1CCS(=O)(=O)c2ccc(Br)cc21 (centres unmarked)	58.98	66.94
COC(=O)c1ccc(CN(C)CCN2CCCC2=O)o1	-	0.6549
CCc1nc(CN2CCN(c3cnccn3)CC2)n[nH]1	-6.479	-
Cc1ccc(C(=O)NCc2ccccc2CO)c(=O)[nH]1	-6.283	-
COC(C)C(=O)NCCNc1cccc(Br)c1 (centres unmarked)	-18.59	-18.6

Some entries from above, unchanged:

- Cc1c(C(N)=O)nnn1-c1ccc2c(c1)OCCO2 : Mtb glucose medium: -2.486%
- Cc1ccc2nc(CN3CCC[C@H]3CO)cc(O)c2c1 : Mtb cholesterol medium: -20.06%
- CC(N)c1coc2ccccc12 (centres unmarked) : Mtb cholesterol medium: 13.27%
- COCCCNc1ccc(Br)cn1 : Mtb glucose medium: 44.47%; Mtb cholesterol medium: 23.52%